{"source": "patent US20060165722A1", "about": "(priority 2005, published 2006)", "tested_on": "tetanus toxin", "assay": "Survival of intranasally immunized mice to Tetanus Toxin challenge", "format": "in vivo", "details": "four weekly intranasal doses TT 1 μg/dose, AT1002 30 μg/dose; s.c. challenge 2 months later with DP50 tetanus toxin; monitored one week"}
{"substance": "Tetanus toxoid", "values": [{"measurement": "No. of survivors/No. of mice", "value": "0/7"}]}
